Anti-infective test results gathered from many reports (values: NIAID ChemDB through PubChem).

All rows: growth or infection tests; species: HIV-1; read-out: fold resistance

Fold resistance: result on the changed form divided by that on wild type. Conditions beyond the fields shown may differ between rows. An empty or dashed field is not shown.

structure	changes	read by	strain	cells	result
CC(C)OC(=O)OCOP(=O)(CO[C@H](C)Cn1cnc2c(N)ncnc21)OCOC(=O)OC(C)C	RT-D67N T69N K70R M184V T215F K219Q	RT activity	7295-1 NRTI resistant recombinant	PBMC	1.1
Cc1cn([C@H]2C[C@H](N=[N+]=[N-])[C@@H](CO)O2)c(=O)[nH]c1=O	RT-D67N K70R T215Y	plaque count	clinical isolate A036D (RT D67N K70R T215Y)	HT4 + HT4-6C	560
O=c1[nH]cnc2c1ncn2[C@H]1CC[C@@H](CO)O1	RT-M184V	luciferase	Recombinant	HeLa	2.4
CCn1c(=O)c(C)cn([C@@H]2O[C@H](CO[Si](C)(C)C(C)(C)C)C3(OS(=O)(=O)C=C3N)[C@H]2O[Si](C)(C)C(C)(C)C)c1=O	RT-L100I Y188H	syncytia	IIIB TIBO R82913 STR-B22 (RT L100I Y188H)	CEM	>1670
Cc1cn([C@H]2C=C[C@@H](CO)O2)c(=O)[nH]c1=O	RT A62V T69SS insertion K70R T215Y		RT-62V 69[SS] 70R 215Y		1
CC(C)(C)C(=O)c1sc(C(=O)NCc2ccccc2)c(O)c1O	INTG-S153Y				2
Cc1ccnc2c1NC(=O)c1cccnc1N2C1CC1	RT-A98G Y181C		BCF08	PBMC	100
C[C@H](Cn1cnc2c(N)ncnc21)OCP(=O)(O)O	RT-D67N K70R T215Y K219Q	p24	G691-2 AZT-resistant (RT D67N K70R T215Y K219Q)	MT-2	0.306
CCN(c1nc(F)ccc1NC(C)(C)C)C1CCN(C(=O)c2cc3cc(NC(=O)N4CCN(C)CC4)ccc3[nH]2)CC1	I401T	p24 / ELISA	IIIB	MT-2	0.9
Cc1ccc(-n2c(C)nnc2SCC(=O)Nc2ccccc2C(F)(F)F)cc1	RT-K103N Y181C	luciferase	NL4-3	HeLa + HeLa-JC53	>1429
Nc1ccn([C@H]2CC[C@@H](CO)O2)c(=O)n1	RT-T69N L74I Q151M M184V	cytopathic effect	LZ-07.96 (HXB2 RT T69N L74I Q151M M184V)	MT-4	>23.4
CC(C)Nc1cccnc1N1CCN(C(=O)c2cc3cc(NS(C)(=O)=O)ccc3[nH]2)CC1	RT-K103N	cytopathic effect	Y-1 (RT-K103N)	CEM	200
Nc1nc2c(ncn2[C@H]2CO[C@@H](CO)O2)c(=O)[nH]1	RT-K65R		K65R		7
Nc1ccn([C@H]2CC[C@@H](CO)O2)c(=O)n1	RT-M184V	plaque count	HXB2	CD4+HELA + HeLa	15.7
Cc1cn([C@H]2C[C@H](N=[N+]=[N-])[C@@H](CO)O2)c(=O)[nH]c1=O	RT-M41L D67N T69N K70R T215F K219E	RT activity	7324-1 NRTI resistant recombinant	PBMC	923
Cc1c(Sc2ccccc2)n(COCCO)c(=O)[nH]c1=O	RT-P236L	cytopathic effect / XTT	IIIB HEPT-resistant (RT P236L)	CEM + CEM-SS	>18
O=c1[nH]cnc2c1ncn2[C@H]1CC[C@@H](CO)O1	RT-M41L M184V T215Y	plaque count	RTMN(184) (RT M41L M184V T215Y)	HT4 + HT4 LacZ-1	3.89
C#C[C@@]1(CO)C=C[C@H](n2cc(C)c(=O)[nH]c2=O)O1	RT-M184V	β-galactosidase	NL4-3	MAGI (CCR5) + MAGI	2.925
Cc1cn([C@H]2C[C@H](N=[N+]=[N-])[C@@H](CO)O2)c(=O)[nH]c1=O	RT-A98G Y181C		BCF03	PBMC	1
Fc1cccc(F)c1C1SCc2nc3ccccc3n21	RT-Y181C	cytopathic effect / XTT	UC781-R (RT-Y181C)	CEM + CEM-SS	>20.3
Cc1cc(Br)cc(S(=O)(=O)c2cccc(N)c2C#N)c1	RT-V108I Y181C	β-galactosidase		HeLa + HELA CD4+	1180
Nc1nc(=O)n([C@@H]2CS[C@H](CO)O2)cc1F	RT-Y181C	plaque count	HXB2	HT4 + HT4 LacZ-1	0.222
Cc1occc1C(=S)Nc1ccc(Cl)c(/C=N/OC(C)(C)C)c1	RT-Y181C	cytopathic effect / XTT	UC82-R (RT-Y181C)	CEM + CEM-SS	5.5
Cc1ccc2ccccc2c1-n1c(C)nnc1SCC(=O)Nc1ccccc1Br	RT-K103N Y181C	luciferase	NL4-3	HeLa + HeLa-JC53	65
Nc1nc2c(ncn2[C@H]2CO[C@@H](CO)O2)c(=O)[nH]1	RT-M184V T215Y K219Q		RT M184V T215Y K219Q		1.1
Cc1ccnc2c1NC(=O)c1cccnc1N2C1CC1	RT-Y181C	cytopathic effect / XTT	E BPTU-resistant (RT Y181C)	CEM + CEM-SS	190
O=C(NCc1ccc(F)cc1)c1nc(N2CCCCS2(=O)=O)c2cccnc2c1O	INTG-N155H				26
CCCc1cc(=O)oc2c3c(c4c(c12)OC(C)(C)C=C4)O[C@H](C)[C@@H](C)[C@@H]3O	RT-Y181C	cytopathic effect / XTT	IIIB	CEM + CEM-SS	0.1
Nc1ccn([C@@H]2CO[C@H](CO)S2)c(=O)n1	RT-M184I	RT activity	HXB2D (M1841I)	MT-2	5.33
Cc1ccnc2c1NC(=O)c1cccnc1N2C1CC1	RT-D67G	RT activity	HxB2D(RT-D67G)	CBMC	0.406
CCOP(=O)(COc1ccc(C[C@H](NC(=O)O[C@H]2CO[C@H]3OCC[C@H]32)[C@H](O)CN(CC(C)C)S(=O)(=O)c2ccc(OC)cc2)cc1)OCC	I401T R409K D437N	p24 / ELISA	IIIB	MT-2	3.5
Nc1ncnc2c1ncn2CC(CF)OCP(=O)(O)O	RT-K103N	syncytia	IIIB TIBO R82913 STR-2 (RT K103N)	CEM	0.667
Cc1cc(S(N)(=O)=O)ccc1NC(=O)COc1ccc(Cl)cc1C(=O)c1cc(Cl)cc(C#N)c1	RT-K103N V108I	β-galactosidase	NNRTI-resistant (RT K103N V108I)	MAGI	1.2
Nc1ncnc2c1ncn2CCOCP(=O)(O)O	RT-L100I E138K	syncytia	IIIB TIBO R82913 STR-B02 (RT L100I E138K)	CEM	2.43
Cc1ccc(NC(=O)CSc2nnc(C)n2-c2ccc(Cl)c3ccccc23)c(Cl)c1	RT-Y188L	luciferase	NL4-3	HeLa + HeLa-JC53	320
C/C=C/CSc1cc(NC(=S)c2ccsc2C)ccc1Cl	RT-L100I	cytopathic effect / XTT	Oxathiin carboxanilide-resistant RT L100I	CEM + CEM-SS	>10
Nc1nc(=O)n([C@H]2CO[C@@H](CO)S2)cc1F	RT-M184V	RT activity	HXB2D (RT-M184V)	MT-4	13.5
Cc1cn([C@H]2C=C[C@@H](CO)O2)c(=O)[nH]c1=O	RT-T69K K70G V75I F77L F116Y Q151M M184V	RT activity	56252-1 NRTI resistant recombinant	PBMC	20
Nc1nc2c(ncn2[C@H]2CC[C@@H](CO)O2)c(=O)[nH]1	RT-E138K	syncytia	IIIB TSAO-T(RT-E138K)	CEM	3.5
O=c1[nH]c2ccc(Cl)cc2n1Cc1c(F)cccc1F	RT-L100I	cytopathic effect		CEM	2.27
COc1cc(C(F)(F)F)cc(S(=O)(=O)c2cccc(N)c2C#N)c1	RT-P236L	β-galactosidase		HeLa + HELA CD4+	0.571
N#Cc1cc2[nH]c3ccccc3c2n(-c2ccc([N+](=O)[O-])cc2)c1=O	RT-K103N Y188L	luciferase	NNRTI-resistant	HeLa	0.7
CCOCn1c(Cc2cc(C)cc(C)c2)c(CC)c(=O)[nH]c1=O	RT-L100I Y181C	syncytia	IIIB TIBO R82913 STR-1 (RT L100I Y181C)	CEM	800
O=c1[nH]cnc2c1ncn2[C@H]1CC[C@@H](CO)O1	RT-A98G V106I Y181C		BCF07	PBMC	0.588
Nc1nc(NC2CC2)c2ncn([C@H]3C=C[C@@H](CO)C3)c2n1	RT-M41L D67N T69N K70R T215F K219E	RT activity	7324-1 NRTI resistant recombinant	PBMC	4.2
CC(C)Nc1cccnc1N1CCN(C(=O)c2cc3cc(NS(C)(=O)=O)ccc3[nH]2)CC1	RT-F77L F116Y Q151M	cytopathic effect	FO-08.96 (HXB2 RT F77L F116Y Q151M)	MT-4	3
CC(C)=CCOc1cc(NC(=S)c2ccoc2C)ccc1Cl	RT-K103N	cytopathic effect	Y-1 (RT-K103N)	CEM	20
Cc1cn([C@H]2C[C@H](N=[N+]=[N-])[C@@H](CO)O2)c(=O)[nH]c1=O	RT-F116Y	p24	Recombinant	PBMC	0
CCc1c(Sc2ccccn2)n(COCc2ccccc2)c(=O)[nH]c1=O	RT-K103N Y181C	cytopathic effect / XTT	IIIB	CEM + CEM-SS	>453
Cc1cn([C@H]2C[C@H](N=[N+]=[N-])[C@@H](CO)O2)c(=O)[nH]c1=O	8374-P47 GS-8374-resistant	ATP	IIIB	MT-2	106
Cc1cc(O)cc(S(=O)(=O)c2cccc(N)c2C#N)c1	RT-K103N Y181C	β-galactosidase		HeLa + HELA CD4+	>794
Cc1ccc(NC(=O)CSc2nnc(C)n2-c2ccccc2)c(Br)c1	RT-K103N Y181C	luciferase	NL4-3	HeLa + HeLa-JC53	13
CC(C)=CCN1Cc2cc(Cl)cc3[nH]c(=S)n(c23)C[C@@H]1C	RT-M41L Y181C T215Y	plaque count	HXB2	HT4 + HT4 LacZ-1	25.5
Cc1cc(Cl)cc(S(=O)(=O)c2cccc(N)c2C#N)c1	RT-K103N	β-galactosidase		HeLa + HELA CD4+	108
Nc1nc(=O)n([C@@H]2CS[C@H](CO)O2)cc1F	RT-T69N K70R Q151M T215Y				~5
Cc1cn([C@H]2C[C@H](N=[N+]=[N-])[C@@H](CO)O2)c(=O)[nH]c1=O	RT-L100I	cytopathic effect / XTT	NL4-3	CEM + CEM-SS	3
Nc1ccn([C@H]2C=C[C@@H](CO)O2)c(=O)n1	RT-V75T T215Y	plaque count	HXB2	CD4+HELA + HeLa	3.33
Cc1cn([C@H]2C[C@H](N=[N+]=[N-])[C@@H](CO)O2)c(=O)[nH]c1=O	RT-Y181C	cytopathic effect / XTT	UC781-R (RT-Y181C)	CEM + CEM-SS	0.5
Cc1cn([C@H]2C=C[C@@H](CO)O2)c(=O)[nH]c1=O	RT-Q151M	p24	Recombinant	PBMC	0.025
CC(C)=CCN1Cc2cccc3[nH]c(=S)n(c23)C[C@@H]1C	RT-Y181C	syncytia	IIIB nevirapine-resistant (RT Y181C)	CEM	100
Cc1cn([C@H]2C[C@H](N=[N+]=[N-])[C@@H](CO)O2)c(=O)[nH]c1=O	RT-M41L A62V S68N G112S V118I M184V	luciferase	Recombinant	HeLa	0.1
CC(C)Oc1ccc(Cc2ccccc2)cc1C(=O)CC(=O)C(=O)O	INTG-T66I				1
Nc1nc(=O)n([C@@H]2CO[C@H](CO)S2)cc1F	RT-D67G	RT activity	HxB2D(RT-D67G)	MT-4	4.55
O=S(=O)(c1ccccc1)c1ccccc1	RT-Y181C	cytopathic effect / XTT	UC82-R (RT-Y181C)	CEM + CEM-SS	>16.3
Cc1cn([C@H]2C=C[C@@H](CO)O2)c(=O)[nH]c1=O	RT-M184V	β-galactosidase	NL4-3	MAGI (CCR5) + MAGI	0.88